Compound potency records, mixed from different reports. Data source: NIAID ChemDB in PubChem.

All rows: growth or infection tests; organism: Adenovirus; measure: EC50

ECn is the concentration giving n% inhibition of infection, replication or growth.

compound,strain or isolate,cells,method,result
Nc1ccn(C[C@@H](CO)OCP(=O)(O)O)c(=O)n1,3 TYPES,HEL,cytopathic effect,3.4 µg/mL
CCCSc1nsc(-c2ccccc2)c1C(=O)O,TYPE 2,HEP-2,plaque count,>500 µg/mL
O=c1[nH]c(=O)n([C@H]2C[C@H](O)[C@@H](CO)O2)cc1/C=C/Br,TYPE 2,VERO,plaque count,100 µM
Nc1nc2c(ncn2CC(CO)OCP(=O)(O)O)c(=O)[nH]1,3 TYPES,HEL,cytopathic effect,2.6 µg/mL
CCSc1nsc(-c2ccccc2)c1C#N,TYPE 2,HEP-2,plaque count,>100 µg/mL
Cc1cn([C@H]2C[C@H](F)[C@@H](CO)O2)c(=O)[nH]c1=O,TYPE 2,HEL,PCR,3.2 µM
CSc1nsc(-c2ccccc2)c1C#N,TYPE 2,HEP-2,plaque count,>20 µg/mL
O=c1ccn(CC(CO)OCP(=O)(O)O)c(=O)[nH]1,3 TYPES,HEL,cytopathic effect,>125 µg/mL
Nc1ccnc2c1ncn2[C@H]1C=C[C@@H](OCP(=O)(O)O)O1,13306 (TYPE 8),,cytopathic effect,10 µg/mL
CC(O)C(CP(=O)(O)O)OCn1ccc(N)nc1=O,TYPE 2,HEP-2,cytopathic effect,>320 µg/mL
Nc1ncnc2c1ncn2C[C@@H](CO)OCP(=O)(O)O,3 TYPES,HEL,cytopathic effect,0.33 µg/mL
Nc1ccn([C@H]2CC[C@@H](CO)O2)c(=O)n1,TYPE 2,HEL,cytopathic effect,1.4 µM
Nc1ccn(C[C@@H](CO)OCP(=O)(O)O)c(=O)n1,13306 (TYPE 8),,cytopathic effect,13 µg/mL
O=c1ccn([C@H]2C[C@H](F)[C@@H](CO)O2)c(=O)[nH]1,TYPE 2,HEL,cytopathic effect,>100 µM
O=C(O)/C=C/c1ccc(O)cc1,TYPE 3,BCC-1/KMC,cytopathic effect,>200 µg/mL
CCCSc1nsc(-c2ccccc2)c1C(=O)OC,TYPE 2,HEP-2,plaque count,>50 µg/mL
Nc1ncnc2c1ncn2C[C@H](CO)OCP(=O)(O)O,adenoid 6 (TYPE 2),,cytopathic effect,3 µg/mL
Nc1ccn(C[C@@H](CO)OCP(=O)(O)O)c(=O)n1,TYPE 2,HEL,,2.1 µM
COc1cc(/C=C/C(=O)O)ccc1O,TYPE 11,BCC-1/KMC,cytopathic effect,23.3 µg/mL
CC(O)C(CP(=O)(O)O)OCn1ccc(=O)[nH]c1=O,TYPE 2,HEP-2,cytopathic effect,>320 µg/mL
C[C@H]1[C@H](C)CC[C@]2(C(=O)O)CC[C@]3(C)C(=CC[C@@H]4[C@@]5(C)CC[C@H](O)C(C)(C)[C@@H]5CC[C@]43C)[C@H]12,TYPE 8,BCC-1/KMC,cytopathic effect,>20 µg/mL
CCOC(=O)CSc1nsc(-c2ccccc2)c1C#N,TYPE 2,HEP-2,plaque count,>200 µg/mL
Nc1ccn([C@H]2CC[C@@H](CO)O2)c(=O)n1,TYPE 8,BCC-1/KMC,cytopathic effect,10.2 µg/mL
O=c1[nH]c(=O)n([C@H]2C[C@H](O)[C@@H](CO)O2)cc1/C=C/Br,TYPE 2,HEL,,>1000 µM
Cc1cn(COC2CP(=O)(Oc3ccccc3)OC2C)c(=O)[nH]c1=O,TYPE 2,HEP-2,cytopathic effect,>320 µg/mL
Nc1ccn(C[C@H]2COP(=O)(O)CO2)c(=O)n1,TYPE 2,HEL,,4.1 µM
OCC1=C[C@@H](O)[C@@H]2C=CO[C@@H](O[C@@H]3O[C@H](CO)[C@@H](O)[C@H](O)[C@H]3O)[C@H]12,TYPE 3,BCC-1/KMC,cytopathic effect,>200 µg/mL
Nc1ccn([C@@H]2CS[C@H](CO)O2)c(=O)n1,TYPE 2,HEL,PCR,>100 µM
CN(C)c1nsc(-c2ccccc2)c1C#N,TYPE 2,HEP-2,plaque count,>15 µg/mL
COc1cc(C(=O)O)ccc1O,TYPE 3,BCC-1/KMC,cytopathic effect,>200 µg/mL
Nc1nc2c(ncn2CCC(CO)CO)c(=O)[nH]1,TYPE 2,HEL,,>1000 µM

Repeating the first 3 entries:

compound | strain or isolate | cells | method | result
Nc1ccn(C[C@@H](CO)OCP(=O)(O)O)c(=O)n1 | 3 TYPES | HEL | cytopathic effect | 3.4 µg/mL
CCCSc1nsc(-c2ccccc2)c1C(=O)O | TYPE 2 | HEP-2 | plaque count | >500 µg/mL
O=c1[nH]c(=O)n([C@H]2C[C@H](O)[C@@H](CO)O2)cc1/C=C/Br | TYPE 2 | VERO | plaque count | 100 µM

Neighbouring rows are from separate reports. Blank or dashed fields: not listed here.